Measured values from several laboratories, pooled; numbers as filed in NIAID ChemDB.

Common to all: whole-cell or culture tests; species: HIV-1; read by: syncytia; endpoint: EC50

ECn: concentration that inhibits the pathogen or its effect by n%. Neighbouring rows are from separate reports.

CC(C)(C)OC(=O)N[C@@H](Cc1ccccc1)C(=O)N1CCC(=O)[C@@H]1Sc1ccccc1 ; cell line: MT-4 ; value: 50 µM
CCc1nc([N+](=O)[O-])c(N2CCN(C(=O)CSCc3ccc(Cl)cc3)CC2)n1Cc1ccccc1 ; cell line: MT-4 ; strain: IIIB ; value: >5.95 µg/mL
Cc1ccccc1C1CCN(C(=O)c2cc3c([nH]c4ccccc43)c(-c3cccs3)n2)CC1 ; cell line: C8166 ; strain: IIIB ; value: 38.7 µM
O=C(c1cccc(F)c1)c1ccc2c(c1)sc(=O)n2Cc1ccccc1 ; cell line: CEM ; strain: IIIB ; value: >1.6 µg/mL
COc1ccc(C[C@H](NC(=O)OC(C)(C)C)C(=O)N2CCC(=O)[C@H]2Sc2ccccc2)cc1 ; cell line: MT-4 ; value: >50 µM
CCCCCCCCCC[N+](C)(C)CCCNCc1c(O)cc2c(c1O)-c1cc(ccc1O)[C@H]1NC(=O)[C@@H]3NC(=O)C4NC(=O)[C@@H](Cc5ccc(c(Cl)c5)Oc5cc3cc(c5O)Oc3ccc(cc3Cl)[C@@H](O)[C@H](NC1=O)C(=O)N[C@@H]2C(=O)O)NC(=O)[C@H](N)c1ccc(O)c(c1)Oc1cc(O)cc4c1 ; cell line: MOLT-4/C8 + MOLT-4 ; strain: HE ; value: 3.7 µM
O=[N+]([O-])c1ccc(CS(=O)(=O)c2cccc[n+]2[O-])cc1 ; cell line: CEM ; strain: IIIB ; value: >4 µg/mL
O=C(c1cc2c([nH]c3ccccc32)c(-c2cccs2)n1)N1CCC(c2cccc(Cl)c2Cl)CC1 ; cell line: C8166 ; strain: IIIB ; value: 95.8 µM
CC1=C(C(=O)Nc2ccc(Cl)c(C(=O)OC3CCCCC3C)c2)SCCO1 ; changes: RT-Y181C ; cell line: CEM ; strain: PYR-resistant (RT Y181C) ; value: 1.3 µg/mL
O=C(c1cccc(Cl)c1)c1ccc2[nH]c(=O)oc2c1 ; cell line: CEM ; strain: IIIB ; value: >8 µg/mL
Nc1ncnc2c1ncn2[C@@H]1O[C@H](COP(=O)([O-])O[C@@H]2[C@H](O)[C@@H](COP(=O)([O-])O[C@@H]3[C@H](O)[C@@H](COP([O-])(=S)O[C@@H]4[C@H](O)[C@@H](CO)O[C@H]4n4cnc5c(N)ncnc54)O[C@H]3n3cnc4c(N)ncnc43)O[C@H]2n2cnc3c(N)ncnc32)[C@@H](O)[C@H]1O ; cell line: PBL ; strain: IIIB ; value: >300 µM
Cc1ccc(C(C)S(=O)c2cccc[n+]2[O-])c(Cl)c1 ; cell line: CEM ; strain: IIIB ; value: >0.16 µg/mL
OC[C@@H]1CC[C@H](COc2ncnc3nc[nH]c23)O1 ; cell line: CEM ; strain: IIIB ; value: >250 µM
CC(c1ccc(S(C)(=O)=O)cc1)S(=O)c1cccc[n+]1[O-] ; cell line: CEM ; strain: IIIB ; value: >0.8 µg/mL
CC(C)(C)OC(=O)N[C@@H](Cc1ccc(OCc2ccccc2)cc1)C(=O)N1CCC(=O)[C@@H]1Sc1ccccc1 ; cell line: MT-4 ; value: >10 µM
NC1=NS(=O)(=O)N(Cc2ccccc2)c2nc(Cc3ccccc3)[nH]c21 ; cell line: CEM ; strain: IIIB ; value: >4 µg/mL
CCCC(Sc1cccc[n+]1[O-])c1cc(C)ccc1C ; cell line: CEM ; strain: IIIB ; value: >4 µg/mL
CCC(=O)Oc1ccc(NC(=O)C2=C(C)OCCS2)cc1C(=O)OC(C)C ; changes: RT-Y181C ; cell line: CEM ; strain: PYR-resistant (RT Y181C) ; value: >10 µg/mL
COc1ccc(CS(=O)c2cccc[n+]2[O-])cc1OC ; cell line: CEM ; strain: IIIB ; value: >0.8 µg/mL
O=C(c1ccccc1)c1ccc2c(c1)oc(=O)n2Cc1ccccc1 ; cell line: CEM ; strain: IIIB ; value: >40 µg/mL
CC(C)OC(=O)[C@H](C)NP(=O)(OC[C@@H]1C=CC(n2ccc(=O)[nH]c2=O)O1)Oc1cccc2ccccc12 ; cell line: CEM ; value: 200 µM
C[C@H](Cn1cnc2c(N)ncnc21)OCP(=O)(O)O ; cell line: CEM ; strain: IIIB ; value: 4.2 µM
CCc1nc([N+](=O)[O-])c(N2CCN(C(=O)CCc3c[nH]c4ccccc34)CC2)n1Cc1ccccc1 ; cell line: MT-4 ; strain: IIIB ; value: >15.2 µg/mL
CC1=C(C(=O)N(C)c2ccc(Cl)c(C(=O)OC(C)C)c2)SCCO1 ; changes: RT-Y181C ; cell line: CEM ; strain: PYR-resistant (RT Y181C) ; value: >10 µg/mL
CCC(=O)c1ccc2c(c1)sc(=O)n2CCN1CCOCC1 ; cell line: CEM ; strain: IIIB ; value: >40 µg/mL
CCc1nc([N+](=O)[O-])c(N2CCN(C(C)=O)CC2)n1Cc1ccccc1 ; cell line: MT-4 ; strain: IIIB ; value: >63.7 µg/mL
CCOC(=O)c1c(C(C)C)c(C#N)c(=N)n2ccccc12 ; cell line: MT-4 ; strain: IIIB ; value: <42.5 µM
O=C(c1cc2c([nH]c3ccccc32)c(-c2cccs2)n1)N1CCC(c2ccccn2)CC1 ; cell line: C8166 ; strain: IIIB ; value: 2.8 µM
COc1ccc(OP(=O)(N[C@@H](C)C(=O)OCc2ccccc2)OC[C@@H]2CCC(n3ccc(=O)[nH]c3=O)O2)c2ccccc12 ; cell line: CEM ; value: 20 µM
CCc1nc([N+](=O)[O-])c(N2CCN(C(=O)CSCc3ccccc3)CC2)n1Cc1ccccc1 ; cell line: MT-4 ; strain: IIIB ; value: >7.64 µg/mL
CCCCCOC(=O)c1cc(NC(=O)C2=C(C)OCCS2)ccc1Cl ; changes: RT-L100I ; cell line: CEM ; strain: TIBO-resistant (RT L100I) ; value: 3.5 µg/mL
O=C(NCc1ccc2c(c1)[C@@H](O)[C@@H](O)c1cc(CNC(=O)OCc3ccccc3)ccc1C2=O)OCc1ccccc1 ; cell line: PBL ; value: 10 µM
Cc1cn([C@H]2C[C@H](N=[N+]=[N-])[C@@H](CO)O2)c(=O)[nH]c1=O ; cell line: CEM ; strain: IIIB ; value: 0.004 µM
O=S(=O)(Cc1ccccc1)c1c(Cl)ccc[n+]1[O-] ; cell line: CEM ; strain: IIIB ; value: >0.8 µg/mL
COc1ccc2c(c1)N=CN1CCc3c([nH]c4ccccc34)C3=NCC[C@@]321 ; value: 0.95 µg/mL
Cc1ccc(C)c(C(Cc2ccccc2)Sc2cccc[n+]2[O-])c1 ; cell line: CEM ; strain: IIIB ; value: >0.8 µg/mL
CCc1nc([N+](=O)[O-])c(N2CCN(C(=O)c3ccc([N+](=O)[O-])cc3)CC2)n1Cc1ccccc1 ; cell line: MT-4 ; strain: IIIB ; value: >84.7 µg/mL
CCCCC(=O)c1ccc2c(c1)sc(=O)n2CCN1CCOCC1 ; cell line: CEM ; strain: IIIB ; value: >8 µg/mL
Cc1occc1C(=O)Nc1ccc(Cl)c(/C=N/N(C)C)c1 ; changes: RT-L100I ; cell line: CEM ; strain: R82150-resistant (RT L100I) ; value: <2 µg/mL
O=C(c1cccc(F)c1)c1ccc2[nH]c(=O)sc2c1 ; cell line: CEM ; strain: IIIB ; value: >40 µg/mL
CCc1nc([N+](=O)[O-])c(N2CCN(C(=O)CSc3ccccc3)CC2)n1Cc1ccccc1 ; cell line: MT-4 ; strain: IIIB ; value: >1.74 µg/mL
CCCCC(=O)c1ccc2c(c1)oc(=O)n2CCN1CCOCC1 ; cell line: CEM ; strain: IIIB ; value: >8 µg/mL
N#C/C(=C/c1ccc(Cl)cc1Cl)S(=O)(=O)c1cccc[n+]1[O-] ; cell line: CEM ; strain: IIIB ; value: >4 µg/mL
CCCCC(=O)c1ccc2c(c1)oc(=O)n2CCN1CCCCC1 ; cell line: CEM ; strain: IIIB ; value: >8 µg/mL
COc1ccc(N2CCN(C(=O)c3cc4c([nH]c5ccccc54)c(-c4cccs4)n3)CC2)cc1 ; cell line: C8166 ; strain: IIIB ; value: >200 µM
Cc1ccc(C)c(C(CCCCCCBr)S(=O)(=O)c2cccc[n+]2[O-])c1 ; cell line: CEM ; strain: IIIB ; value: >0.8 µg/mL
CC1=C(C(=O)Nc2cc(C(=O)OC(C)C)c(F)cc2F)SCCO1 ; changes: RT-E138K ; cell line: CEM ; strain: TSAO-resistant (RT E138K) ; value: >10 µg/mL
CC(=O)OCCOCN1c2nc(Cc3ccccc3)[nH]c2C(N)=NS1(=O)=O ; cell line: CEM ; strain: IIIB ; value: 29 µg/mL
C[C@H](NP(=O)(OC[C@@H]1CCC(n2ccc(=O)[nH]c2=O)O1)Oc1ccccc1)C(=O)OCc1ccccc1 ; cell line: CEM ; value: 40.8 µM
Nc1nc(OC[C@H]2CC[C@@H](CO)O2)c2[nH]cnc2n1 ; cell line: CEM ; strain: IIIB ; value: >250 µM
CC1=C(C(=O)Nc2ccc(Cl)c(C(=O)OC(C)C)c2)SCCO1 ; cell line: CBMC ; strain: IIIB ; value: 1 µM
CN1CCN(C(=O)c2ccc3c(=O)c4ccccc4[nH]c3c2)CC1 ; cell line: CEM ; strain: IIIB ; value: 0.007 µg/mL
N#C/C(=C/c1ccccc1)Sc1cccc[n+]1[O-] ; cell line: CEM ; strain: IIIB ; value: >4 µg/mL
CCSCC1=C(C(=O)Nc2ccc(Cl)c(C(=O)OC(C)C)c2)SCCO1 ; changes: RT-L100I ; cell line: CEM ; strain: TIBO-resistant (RT L100I) ; value: 7 µg/mL
COC(=O)[C@H](C)NP(=O)(OC[C@@H]1C=CC(n2ccc(=O)[nH]c2=O)O1)Oc1cccc2ccccc12 ; cell line: CEM ; value: >10 µM
Cc1c(Cl)c(Cl)c(CS(=O)(=O)c2cccc[n+]2[O-])c(Cl)c1Cl ; cell line: CEM ; strain: IIIB ; value: ≥0.8 µg/mL
CCCOC(=O)c1cc(NC(=O)C2=C(C)OCCS2)ccc1Cl ; changes: RT-E138K ; cell line: CEM ; strain: TSAO-resistant (RT E138K) ; value: 4 µg/mL
Cc1ccc(C)c(C(c2ccccc2)S(=O)(=O)c2cccc[n+]2[O-])c1 ; cell line: CEM ; strain: IIIB ; value: >20 µg/mL
COc1ccccc1N1CCN(c2c(F)cc3c(=O)c(C(=O)O)cn(-c4ccc(Cn5cncn5)cc4)c3c2OC(F)F)CC1 ; cell line: PBL ; value: 0.004 µM
COc1cc(OC[C@H]2CC[C@@H](COCc3ccccc3)O2)ncn1 ; cell line: CEM ; strain: IIIB ; value: >10 µM
CCc1nc([N+](=O)[O-])c(N2CCN(C(=O)CS(=O)(=O)c3cccc4ccccc34)CC2)n1Cc1ccccc1 ; cell line: MT-4 ; strain: IIIB ; value: >17.7 µg/mL
Cc1cc[n+]([O-])c(S(=O)(=O)Cc2ccc(Cl)cc2)c1 ; cell line: CEM ; strain: IIIB ; value: >14 µg/mL
Nc1nccc(OC[C@H]2CC[C@@H](CO)O2)n1 ; cell line: CEM ; strain: IIIB ; value: >250 µM
CCCCOC(=O)c1cc(NC(=O)C2=C(C)OCCS2)ccc1Cl ; changes: RT-E138K ; cell line: CEM ; strain: TSAO-resistant (RT E138K) ; value: 3.5 µg/mL
C/C(=C/CC[C@@H](C)C(=O)C1C[C@@]2(C)[C@@H]3CC[C@H]4C(C)(C)C(=O)CC[C@]4(C)C3=C[C@@]2(O)[C@]1(C)O)C(=O)O ; value: 47.91 µg/mL